A mixed list of measured activities; the numbers were collected in NIAID ChemDB.

Shared fields: tests in culture; agent: Varicella zoster virus; read-out: EC50

ECn: concentration that inhibits the pathogen or its effect by n%. a–b is a range or a potency band. Rows are shuffled and stem from different studies. Blank or dashed fields: not listed here.

structure,strain or isolate,read by,result
O=c1[nH]c(=O)n([C@@H]2O[C@H](CO)[C@@H](O)[C@@H]2O)cc1/C=C/Br,Kawaguchi (BrdU-resistant),plaque count,>1 µg/mL
Nc1nc2c(ncn2[C@H]2C=C[C@@H](CO)[C@H](O)C2)c(=O)[nH]1,KOS (TK-),-,5.8 µg/mL
Nc1ncc2c(ncn2COC(CO)CO)n1,-,cytopathic effect,0.03 µg/mL
Cc1cn([C@H]2C[C@@H](N=[N+]=[N-])[C@@H](CO)O2)c(=O)[nH]c1=O,OKA,plaque count,>250 µM
CC1(C)[C@H](CCO)C[C@@H]1n1nnc2c(=O)[nH]cnc21,YS (TK+),plaque count,>50 µg/mL
Cn1cc(C(=O)NCc2ccc(Cl)cc2)c(=O)c2cc(CN3CCOCC3)ccc21,20 isolates,plaque count,0.34 µM
Nc1ncc2ncn(/C=C3\CC3CO)c2n1,-,ELISA,>100 µM
Nc1nc2c(ncn2[C@@H]2C[C@H](CO)[C@H]2O)c(=O)[nH]1,-,plaque count,2–4 µM
NC1=NC2C(C=CN2CC(CO)CCO)C(=O)N1,-,-,0.01–0.1 µM
CCCCCCCCc1cc2cn([C@H]3C[C@H](O)[C@@H](CO)O3)c(=O)nc2o1,YS,-,0.024 µM
CCCCCCCCC1=CC2=CN([C@H]3C[C@H](O)[C@@H](CO)O3)C(=O)NC2O1,-,-,0.008 µM
Nc1nc2c(ncn2COCCO)c(=O)[nH]1,-,plaque count,3.8 µg/mL
CC1(C)[C@H](CCO)C[C@@H]1n1nnc2c(N)ncnc21,YS (TK+),plaque count,3.5 µg/mL
O=C(O)CP(=O)(O)O,Kawaguchi acyclovir-resistant mutant A7,plaque count,1.25 µg/mL
O=C(NCc1ccc(Cl)cc1)c1c[nH]c2c(F)cccc2c1=O,MAG,plaque count,1.1 µM
Nc1nc2c(ncn2[C@@H]2CO[C@H](CO)[C@@H](O)C2)c(=O)[nH]1,-,plaque count,1–10 µM
Nc1nc(=S)n([C@@H]2O[C@H](CO)[C@@H](O)[C@@H]2O)cc1F,-,-,12.7 µg/mL
Nc1nc2c(ncn2[C@@H]2C[C@H](CO)[C@H]2CO)c(=O)[nH]1,-,plaque count,0.1–1 µM
Nc1ncc2c(ncn2/C=C2\CC2CO)n1,-,ELISA,>100 µM
CC(NC(=S)Nc1ccc(NC(=O)c2ccccc2F)cc1)c1ccc(F)cc1,-,-,0.6 µM
NC1=NC2C(C=CN2CC(CO)CCO)C(=O)N1,-,plaque count,0.01–0.1 µM